Results of unrelated studies side by side (data: NIAID ChemDB).

Shared fields: growth or infection tests; species: HIV-1

Rows are shuffled and stem from different studies.

SMILES,method,read-out,cells,changes,strain,result
CN(C)C(=O)Oc1nsnc1-c1ccc(Cl)cc1Cl,cytopathic effect / MTT,EC50,MT-4,,IIIB,8.3 µM
Cc1ccc(C(=O)Nc2ccc(S(=O)(=O)O)c3cc(S(=O)(=O)O)cc(S(=O)(=O)O)c23)cc1NC(=O)c1cccc(NC(=O)Nc2cccc(C(=O)Nc3cc(C(=O)Nc4ccc(S(=O)(=O)O)c5cc(S(=O)(=O)O)cc(S(=O)(=O)O)c45)ccc3C)c2)c1,luciferase,EC50,TZM-bl,,LAI,80 µM
Fc1cccc(F)c1[C@H]1SCc2nc3ccccc3n21,cytopathic effect,EC50,MT-4,,RF,0.31 µM
CCCc1cc(=O)oc2c3c(c4c(c12)OC(C)(C)CC4)O[C@@H](C)[C@H](C)[C@@H]3O,syncytia,EC50,CEM + CEM-SS,,RF,0.14 µM
CCOC(=O)c1c[nH]cc1S(=O)(=O)c1ccccc1,cytopathic effect / MTT,EC50,MT-4,,IIIB,>200 µM
O=c1[nH]cnc2c1ncn2[C@H]1CC[C@@H](CO)O1,cytopathic effect,EC50,MT-4,,IIIB,23 ± 3.3 µM
S=C(NCCc1cccs1)Nc1ccc(Br)cn1,p24,EC50,PBMC,RT-D67N K70R T215E K219Q,G691-2 Clinical isolate NRTI-resistant,0.00004 µM
CCCCCCCCCCCCSCC(COP(=O)([O-])OCC[N+](C)(C)C)OCCCCCCCCC(=O)OCC(=O)OC[C@H]1O[C@@H](n2cc(C)c(=O)[nH]c2=O)C[C@@H]1N=[N+]=[N-],plaque count,EC50,CEM + CEM-SS,,Clinical isolate H112-2 pre-AZT,0.01 µM
Cc1ccnc2c1NC(=O)c1cccnc1N2C1CC1,β-galactosidase,EC50,MAGI,RT-A62V V75I F77L Q151M,NRTI resistant (RT A62V V75I F77L Q151M) MDR151,0.16 µM
CCCCCCCCCCCCSCC(COP(=O)([O-])OCC[N+](C)(C)C)OCCCCCCCCO,plaque count,EC50,CEM-SS,,5346 WT,0.18 µM
CN(C)C(=O)Oc1nsnc1-c1ccccc1,cytopathic effect / MTT,EC50,MT-4,RT-Y181C,IIIB-R (RT-Y181C),>210 µM
CC(C)(C)NC(=O)[C@@H]1C[C@@H]2CCCC[C@@H]2CN1C[C@@H](O)[C@H](Cc1ccccc1)NC(=O)[C@H](CC(N)=O)NC(=O)c1ccc2ccccc2n1,RT activity,EC50,MT-2,,MN,0.003 µM
CCN(C)C(=O)Oc1nsnc1-c1c(Cl)cccc1Cl,cytopathic effect / MTT,EC50,MT-4,RT-Y181C,IIIB-R (RT-Y181C),5.6 µM
CC(C)=CCn1cc2c(c1)S(=O)(=O)c1cc(Cl)ccc1NC2=O,cytopathic effect / MTT,EC50,MT-4,RT-Y181C,Clinical isolate,≥30 µM
Cc1cn([C@H]2C[C@H](N=[N+]=[N-])[C@@H](CO)O2)c(=O)[nH]c1=O,cytopathic effect / XTT,EC50,CEM + CEM-SS,,KELL,0.0012 µM
Cc1ccnc2c1NC(=O)c1cccnc1N2C1CC1,,EC95,MT-4,RT-M41L T215Y Y181C,,>3 µM
CCN1C(=S)c2cn(C)cc2S(=O)(=O)c2cc(Cl)ccc21,cytopathic effect / MTT,EC50,MT-4,,IIIB,17 µM
O=C1c2ccccc2C(=O)N1CCOC(=S)N(C(=O)c1ccco1)c1ccc(Cl)cc1,cytopathic effect / MTT,EC50,C8166,,IIIB,<0.005 µM
O=c1[nH]c(=O)n([C@H]2C[C@H](F)[C@@H](CO)O2)cc1Cl,plaque count,EC50,CD4+HELA + HeLa,RT-L74V,RT L74V (ddI- ddC-resistant),13 µM
Cc1cc(C#N)cc(C)c1Oc1nc(Nc2ccc(C#N)cc2)nc(N)c1Br,luciferase,EC50,HEK293T,,94ug 114.1.6 D (N348I),0.00726 µM
O=C(Oc1nsnc1-c1c(Cl)cccc1Cl)N1CCCCC1,cytopathic effect / MTT,EC50,MT-4,RT-Y181C,IIIB-R (RT-Y181C),>221 µM
Fc1cccc(F)c1C1SCc2nc3ccccc3n21,cytopathic effect / XTT,EC50,CEM,RT-V106N,IIIB,7.63 µM
CCN(c1nc(F)ccc1NC(C)(C)C)C1CCN(C(=O)c2cc3cc(NC(=O)N4CCN(C)CC4)ccc3[nH]2)CC1,ATP,EC50,MT-2,,IIIB,0.0082 µM
COc1ccc(CN(CCN2CCCCC2)CC2CCCN(C3CCCC3)C2)cc1O,β-galactosidase,EC50,MAGI,,BaL,>10 µM
COc1ccc(CCN=C2C=C(Cc3ccc4ccccc4c3)NS(=O)(=O)N2)cc1,MTT,EC50,MT-4,,IIIB,>159 µM
O=C1c2ccccc2C(=O)N1CCOC(=S)N(C(=O)c1cccs1)c1ccc(Cl)cc1,cytopathic effect / MTT,EC50,MT-4,RT-K103N Y181C,A17,>100 µM
Cc1cn([C@@H]2O[C@H](CO[Si](C)(C)C(C)(C)C)[C@@]3(OS(=O)(=O)C=C3N)[C@H]2O[Si](C)(C)C(C)(C)C)c(=O)[nH]c1=O,microscopy,EC50,CEM,,IIIB,0.03 µM
CCCN(C)C(=O)Oc1nsnc1-c1c(Cl)cccc1Cl,cytopathic effect / MTT,EC50,MT-4,RT-Y181C,IIIB-R (RT-Y181C),2.6 µM
CCOC(=O)c1cn(C)cc1S(=O)(=O)c1ccccc1,cytopathic effect / MTT,EC50,MT-4,,IIIB,>200 µM
C=O.Cc1cn(C2CC(N(N)N)C(COP(N)(=O)O)O2)c(=O)[nH]c1=O,,EC50,,,,0.191 µM
COCCNC(=O)[C@@H](NC(=O)[C@H](Cc1ccc(OC)c(OC)c1OC)C[C@H](O)[C@H](Cc1ccccc1)NC(=O)OC(C)(C)C)C(C)C,RT activity,EC50,MT-2,,MN,0.006 µM
Cc1cc(NC2=NS(=O)(=O)NC(Cc3ccccc3)=C2)ccc1Cl,MTT,EC50,MT-4,,IIIB,>179 µM
CCOCn1c(Sc2ccccc2)c(CC)c(=O)[nH]c1=S,syncytia,EC50,CEM,RT-Y188H,IIIB HEPT-resistant (RT Y188H),≥20 µg/mL
CC(C)=CCn1cc2c(c1)S(=O)(=O)c1cc(Cl)ccc1NC2=S,cytopathic effect / MTT,EC50,MT-4,RT-Y181C,Clinical isolate,≥30 µM
Nc1nc2c(ncn2[C@H]2CO[C@@H](CO)O2)c(=O)[nH]1,,EC50,MT-2,,IIIB,0.045 µM
COc1ccc2nc3cc(Cl)ccc3c(NCC[C@@H]3CCCN4CCCC[C@H]34)c2c1,MTT,EC50,MT-4,,,>0.7 µM
Nc1nc(=O)n([C@H]2CO[C@@H](CO)S2)cc1F,RT activity,EC50,CBMC,RT-M184M/V,3887(RT-M184M/V),0.3 µM
CCOCn1c(Sc2ccccc2)c(CC)c(=O)[nH]c1=O,syncytia,EC50,CEM,RT-Y181C,IIIB PYR(RT-Y181C),0.26 µg/mL
O=c1[nH]cnc2c1ncn2[C@H]1CC[C@@H](CO)O1,p24,EC50,PBMC,,IIIB,1.6 µM
CCCc1cc(=O)oc2c3c(c4c(c12)OC(C)(C)C=C4)O[C@H](C)[C@@H](C)[C@@H]3O,p24,EC50,CEM + CEM-SS,,RF,0.07 µM
COc1ccc2nc3cc(Cl)ccc3c(NCCCO)c2c1,MTT,EC50,MT-4,,,>59 µM
C[C@H](Cn1cnc2c(N)ncnc21)OCP(=O)(O)O,p24 / ELISA,EC50,,,ZAM18,0.53 µM
CC(C)Nc1cccnc1N1CCN(C(=O)c2cc3cc(NS(C)(=O)=O)ccc3[nH]2)CC1,RT activity,EC50,MT-4,RT-D67G,HxB2D(RT-D67G),0.003 µM
CC(C)=CCN1Cc2cc(Cl)cc3[nH]c(=S)n(c23)C[C@@H]1C,cytopathic effect / XTT,EC50,CEM,RT-Y181C,IIIB,6.6 µM
Cc1cn([C@H]2C[C@H](N=[N+]=[N-])[C@@H](CO)O2)c(=O)[nH]c1=O,ATP,EC50,MT-2,8374-P47 GS-8374-resistant,IIIB,0.265 µM
O=C1c2ccccc2C(=O)N1CCOC(=S)N(C(=O)c1ccccc1)c1ccccc1,cytopathic effect / MTT,EC50,MT-4,RT-K103R V179D P225H,IIIB,>100 µM
COc1ccc2nc3cc(Cl)ccc3c(NC3CN4CCC3CC4)c2c1,MTT,EC50,MT-4,,,>1.9 µM
CC(C)(C)NC(=O)[C@@H]1CN(Cc2cc3cccnc3s2)CCN1C[C@@H](O)C[C@@H](Cc1ccccc1)C(=O)N[C@H]1c2ccccc2C[C@H]1O,p24,EC50,MT-4,,IIIB,<0.0125 µM
CC(C)c1nc(CN(C)C(=O)N[C@H](C(=O)N[C@@H](Cc2ccccc2)C[C@H](O)[C@H](Cc2ccccc2)NC(=O)OCc2cncs2)C(C)C)cs1,p24,EC90,MT-4,PR-I84V,NL4-3,0.8 µM
CCC[C@@H](c1ccc(C(F)(F)F)cc1)N1CCN(C2(C)CCN(C(=O)c3c(C)ncnc3C)CC2)C[C@@H]1C,,EC50,PBMC,,ADA-M Clinical isolates,<0.00003 µM
Cc1cn([C@H]2C[C@H](N=[N+]=[N-])[C@@H](CO)O2)c(=O)[nH]c1=O,RT activity,EC50,CBMC,RT-M184M/V,3887(RT-M184M/V),0.002 µM
CCO/N=C(\c1ccc(Br)cc1)C1CCN(C2(C)CCN(C(=O)c3c(C)cc[n+]([O-])c3C)CC2)CC1,,EC50,PBMC,,JV1083 Clinical isolates,<0.01 µM
CC(=O)c1ccc(C)cc1NC(C(N)=O)c1c(Cl)cccc1Cl,MTT,EC50,MAGI,,IIIB,0.045 µM
CC(C)(C)NC(=O)[C@@H]1CN(Cc2cnc3ccoc3c2)CCN1C[C@@H](O)C[C@@H](Cc1ccccc1)C(=O)N[C@H]1c2ccccc2C[C@H]1O,p24,EC50,MT-4,,IIIB,<0.003 µM
Cc1cn([C@@H]2O[C@H](CO[Si](C)(C)C(C)(C)C)C3(OS(=O)(=O)C=C3N)[C@H]2O[Si](C)(C)C(C)(C)C)c(=O)n(C)c1=O,syncytia,EC50,CEM,,IIIB,0.03 µg/mL
COc1cc(C(=O)Sc2ccccc2C(=O)NCCC(N)=O)cc(OC)c1OC,luminescence,EC50,TZM-bl,,IIIB,2.2 µM
CCN(CC)CC(O)CNc1c2ccc(Cl)cc2nc2ccc(OC)cc12,MTT,EC50,MT-4,,,>1.7 µM
CCOC(=O)c1cn(C)cc1S(=O)(=O)c1cc(Cl)ccc1N,cytopathic effect / MTT,EC50,MT-4,,IIIB,1.3 µM
C/C(=C(/CCOC(=O)C(C)C)SS/C(CCOC(=O)C(C)C)=C(\C)N(C=O)Cc1cnc(C)nc1N)N(C=O)Cc1cnc(C)nc1N,p24,EC50,CEM/HIV-1(LAV-1) + CEM,,LAV-1,>50 µM
Cc1nn(C)c2ncc(CN3CCN(C[C@@H](O)C[C@@H](Cc4ccccc4)C(=O)N[C@H]4c5ccccc5C[C@H]4O)[C@H](C(=O)NC(C)(C)C)C3)cc12,p24,EC50,MT-4,,IIIB,<0.006 µM
Cc1ccc(NC2=NS(=O)(=O)NC(Cc3ccc4ccccc4c3)=C2)cc1C,MTT,EC50,MT-4,,IIIB,>147 µM
CCOC(=O)c1cnc2oc(CN3CCN(C[C@@H](O)C[C@@H](Cc4ccccc4)C(=O)N[C@H]4c5ccccc5C[C@H]4O)[C@H](C(=O)NC(C)(C)C)C3)cc2c1,p24,EC50,MT-4,,IIIB,<0.025 µM
Nc1ncc(CN(CCN2CCCCC2)CC2CCCN(C3CCCC3)C2)cn1,MTT,EC50,MT-4,,NL4-3,2.6 µM
CC(C)Nc1cccnc1N1CCN(C(=O)c2cc3cc(NS(C)(=O)=O)ccc3[nH]2)CC1,p24,EC50,PBMC,,JR-CSF,0.0053 µM
Nc1nc(=O)n([C@@H]2CO[C@H](CO)S2)cc1F,RT activity,EC50,MT-4,RT-D67G,HxB2D(RT-D67G),30 µM
c1cc(CN2CCCNCCNCCCNCC2)ccc1CN1CCCNCCNCCCNCC1,p24,EC50,PBMC,,PCP1 CLADE C R5 CXCR6,>0.5 µM
CC(C)[C@H](NC(=O)c1ccc2ccccc2n1)C(=O)N[C@@H](Cc1ccccc1)[C@H](O)CN1CC[C@@H](OCc2ccncc2)C[C@H]1C(=O)NC(C)(C)C,p24,EC50,C8166,,ddI-resistant,0.0062 µM
CCOCn1c(Sc2cc(C)cc(C)c2)c(C(C)C)c(=O)[nH]c1=S,trypan blue,EC50,MT-4,,IIIB,0.004 µM
Nc1ccn([C@@H]2CC[C@H](CO)O2)c(=O)n1,,EC50,CEM + CEM TK-,,IIIB,0.09 µM
CC(C)=CCN1Cc2cc(Cl)cc3[nH]c(=S)n(c23)C[C@@H]1C,syncytia,EC50,CEM,RT-Y181C,IIIB PYR(RT-Y181C),2 µg/mL
Cc1ccc(S(=O)(=O)N(CC(C)C)C[C@@H](O)[C@H](Cc2ccccc2)NC(=O)O[C@H]2CO[C@H]3OCC[C@H]32)cc1,p24 / ELISA,EC50,MT-2,R41K,IIIB,0.008 µM
Cc1cn([C@H]2C[C@H](N=[N+]=[N-])[C@@H](CO)O2)c(=O)[nH]c1=O,plaque count,EC50,CEM + CEM-SS,,HXB2 WT,0.0001 µM
Nc1ccn([C@H]2CC[C@@H](CO)O2)c(=O)n1,,EC50,CEM + CEM TK-,,LAI,0.0019 µM
CCOCn1c(Cc2ccccc2)c(CC)c(=O)[nH]c1=O,syncytia,EC50,CEM,RT-V106A,IIIB NEV(RT-V106A),0.12 µg/mL
O=C1c2ccccc2C(=O)N1CCOC(=S)N(C(=O)c1ccc(Cl)cc1)c1ccc(Cl)cc1,cytopathic effect / MTT,EC50,MT-4,RT-K103R V179D P225H,IIIB,>100 µM
O=c1c2ccccc2n2nnc3ccc(NCCCN4CCN(CCCNc5ccc6nnn7c8ccccc8c(=O)c5c67)CC4)c1c32,p24,EC50,PBL,,AZT-resistant,0.01 µM
Oc1cccc(CN(CCN2CCCCC2)CC2CCCN(C3CCCC3)C2)c1,p24,EC50,PBMC,,NL4-3,3 µM
NC(=O)c1ccc(NC2=NS(=O)(=O)NC(Cc3ccccc3)=C2)cc1,MTT,EC50,MT-4,,IIIB,>286 µM

Blank or dashed fields: not listed here. ECn is the concentration giving n% inhibition of infection, replication or growth.